Our source for the pIC50 and IC50 values is publication PMC4643876, “Picomolar Inhibition of Plasmepsin V, an Essential Malaria Protease, Achieved Exploiting the Prime Region” (PLoS ONE, 2015).

Amino acid sequences for entries named in this document (tags omitted).
UniProt Q8I6Z5, whole entry: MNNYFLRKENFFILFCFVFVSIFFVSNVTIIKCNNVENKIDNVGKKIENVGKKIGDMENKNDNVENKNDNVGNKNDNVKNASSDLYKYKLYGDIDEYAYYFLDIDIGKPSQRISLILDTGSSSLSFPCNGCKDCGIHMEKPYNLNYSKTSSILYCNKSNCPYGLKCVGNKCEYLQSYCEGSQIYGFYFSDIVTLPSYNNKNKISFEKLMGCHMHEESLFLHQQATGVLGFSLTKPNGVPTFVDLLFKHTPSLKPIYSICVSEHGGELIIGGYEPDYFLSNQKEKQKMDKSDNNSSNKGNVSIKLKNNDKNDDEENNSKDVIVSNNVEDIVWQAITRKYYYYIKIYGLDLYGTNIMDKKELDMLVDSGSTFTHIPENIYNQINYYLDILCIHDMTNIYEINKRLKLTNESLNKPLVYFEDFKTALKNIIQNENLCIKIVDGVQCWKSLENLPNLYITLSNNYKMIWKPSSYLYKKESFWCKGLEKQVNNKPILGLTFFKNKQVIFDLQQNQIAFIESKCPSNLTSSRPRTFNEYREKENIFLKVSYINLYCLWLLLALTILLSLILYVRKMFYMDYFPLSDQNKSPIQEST

One assay addresses Plasmepsin V (PmV) (Plasmodium falciparum, UniProt Q8I6Z5). Put plainly: PmV inhibition, fluorimetric PExEl cleavage assay. Type of assay: biochemical. As to conditions: Activity.
For orientation: pIC50 means −log10 of the IC50, conventionally taken in molar units. Higher therefore signals a small IC50. For the compound `CC(C)C[C@H](NC(=O)[C@@H](N)Cc1c[nH]c2ccccc12)C(=O)N[C@@H](CC(C)C)[C@@H](O)CN[C@@H](C)C(=O)N[C@@H](CCC(=O)O)C(=O)N[C@@H](C)C(N)=O`, the pIC50 was found to be 5.59.
Same read-out and setting: next, `CC(C)C[C@H](NC(=O)[C@@H](N)Cc1c[nH]c2ccccc12)C(=O)N[C@@H](CC(C)C)[C@@H](O)CN[C@@H](Cc1ccc(O)cc1)C(=O)N[C@@H](CCC(N)=O)C(=O)N[C@@H](C)C(N)=O`: 5.90; `CC(C)C[C@H](NC(=O)[C@@H](N)CCCNC(=N)N)C(=O)N[C@@H](CC(C)C)[C@@H](O)CN[C@@H](Cc1ccc(O)cc1)C(=O)N[C@@H](CCC(=O)O)C(=O)N[C@@H](C)C(N)=O`: 8.86.
On the same count and under the same terms, under `CC(C)C[C@H](NC(=O)[C@@H](N)CCCNC(=N)N)C(=O)N[C@@H](CC(C)C)C(O)CN[C@@H](C)C(=O)N[C@@H](CCC(=O)O)C(=O)N[C@@H](C)C(=O)O` (stereo partly drawn) stands 8.88; under `CC(C)C[C@H](NC(=O)[C@@H](N)Cc1ccc(O)cc1)C(=O)N[C@@H](CC(C)C)[C@@H](O)CN[C@@H](C)C(=O)N[C@@H](CCC(=O)O)C(=O)N[C@@H](C)C(N)=O`, 5.33; under `CC(C)C[C@H](NC(=O)[C@@H](N)Cc1ccc(O)cc1)C(=O)N[C@@H](CC(C)C)[C@H](O)CN[C@@H](C)C(=O)N[C@@H](CCC(=O)O)C(=O)N[C@@H](C)C(N)=O`, 4.72.
On the same count and under the same terms, next, `CC(C)C[C@H](NC(=O)[C@@H](N)CCCNC(=N)N)C(=O)N[C@@H](CC(C)C)[C@H](O)CN[C@@H](Cc1ccc(O)cc1)C(=O)N[C@@H](CCC(=O)O)C(N)=O`: 7.49.
With `CC(C)C[C@H](NC(=O)[C@@H](N)CCCNC(=N)N)C(=O)N[C@@H](CC(C)C)[C@@H](O)CN[C@@H](Cc1ccc(O)cc1)C(=O)N[C@@H](CCC(=O)O)C(N)=O`, the negative logarithm of the IC50 (pIC50) turned out to be 8.74.
In the case of `CC(=O)N[C@@H](CCCNC(=N)N)C(=O)N[C@@H](CC(C)C)C(=O)N[C@@H](CC(C)C)C(O)CN[C@@H](C)C(=O)N[C@@H](CCC(N)=O)C(=O)N[C@@H](C)C(N)=O` (stereo partly drawn), the negative logarithm of the IC50 (pIC50) was found to be 6.93.
Regarding `CC(C)C[C@H](NC(=O)[C@@H](N)Cc1cnc[nH]1)C(=O)N[C@@H](CC(C)C)[C@@H](O)CN[C@@H](C)C(=O)N[C@@H](CCC(=O)O)C(=O)N[C@@H](C)C(N)=O`, the negative logarithm of the IC50 (pIC50) amounted to 5.77.
On the same count and under the same terms, under `CC(C)C[C@H](NC(=O)[C@@H](N)Cc1c[nH]c2ccccc12)C(=O)N[C@@H](CC(C)C)[C@@H](O)CN[C@@H](C)C(=O)N[C@@H](CCC(N)=O)C(=O)N[C@@H](C)C(N)=O` stands 5.29.
`CC(C)C[C@H](NC(=O)[C@@H](N)CCCCN)C(=O)N[C@@H](CC(C)C)[C@@H](O)CN[C@@H](C)C(=O)N[C@@H](CCC(=O)O)C(=O)N[C@@H](C)C(N)=O`: the pIC50 is recorded as 6.12.
Still for that read-out and setting: under `CC[C@H](C)[C@H](NC(=O)[C@@H](N)CCCNC(=N)N)C(=O)N[C@@H](CC(C)C)C(O)CN[C@@H](C)C(=O)N[C@@H](CCC(=O)O)C(=O)N[C@@H](C)C(=O)O` (stereo partly drawn) stands 8.66; under `CC(C)C[C@H](NC(=O)[C@@H](N)Cc1cnc[nH]1)C(=O)N[C@@H](CC(C)C)[C@H](O)CN[C@@H](C)C(=O)N[C@@H](CCC(=O)O)C(=O)N[C@@H](C)C(N)=O`, 5.13.
On the same count and under the same terms, next, `CC(C)C[C@H](NC(=O)[C@@H](N)Cc1cnc[nH]1)C(=O)N[C@@H](CC(C)C)[C@@H](O)CN[C@@H](Cc1ccc(O)cc1)C(=O)N[C@@H](CCC(N)=O)C(=O)N[C@@H](C)C(N)=O`: 5.09; `CC(C)C[C@H](NC(=O)[C@@H](N)CCCNC(=N)N)C(=O)N[C@@H](CC(C)C)C(O)CN[C@@H](C)C(=O)N[C@@H](CCC(=O)O)C(N)=O` (stereo partly drawn): 9.38.

Still in this assay, the particulars now being: read-out: IC50 nM; Activity.
What is called IC50 is the point on the concentration scale where inhibition reaches its midpoint. Regarding `CC(C)C[C@H](NC(=O)[C@@H](N)Cc1ccc(O)cc1)C(=O)N[C@@H](CC(C)C)[C@H](O)CN[C@@H](C)C(=O)N[C@@H](CCC(=O)O)C(=O)N[C@@H](C)C(N)=O`, the IC50 worked out at 19100 nM.
For `CC(C)C[C@H](NC(=O)[C@@H](N)Cc1cnc[nH]1)C(=O)N[C@@H](CC(C)C)[C@H](O)CN[C@@H](C)C(=O)N[C@@H](CCC(=O)O)C(=O)N[C@@H](C)C(N)=O`, the concentration for half-maximal inhibition (IC50) is 7470 nM.
